Experimental data taken from patent publication US20110274702A1 (INSTITUTE FOR RESEARCH IN BIOMEDICINE, published 2011).

Key:
Experiment in all cases: ELISA on coated HA
[1] = target: H3N2 A/Brisbane/10/07 HA protein (influenza A virus H3N2 A/Brisbane/10/07)
[2] = target: H3N2 A/Wyoming/3/03 HA protein (influenza A virus H3N2 A/Wyoming/3/03)
[3] = target: H3N2 A/New York/55/04 HA protein (influenza A virus H3N2 A/New York/55/04)

B1: FI6 variant 2 (antibody, V domains shown)
VH: QVQLVQSGGGVVQPGRSLRLSCVASGFTFSTYAMHWVRQAPGRGLEWVAVISYDGNYKYYADSVKGRFSISRDNSNNTLHLEMNTLRTEDTALYYCAKDSQLRSLLYFEWLSQGYFDPWGQGTLVTVTS
VL: DIQMTQSPDSLAVSLGARATINCKSSQSVTFNYKNYLAWYQQKPGQPPKVLIYWASARESGVPDRFSGSGSGTDFTLTISSLQAEDVAVYYCQQHYRTPPTFGQGTKVEIK
EC50 [1]: 0.041 µg/mL | EC50 [2]: 0.019 µg/mL | EC50 [3]: 0.032 µg/mL
